Laboratory results: PMC6426608

How the values were obtained:
[1] = tested on: RhpR D70E (Pseudomonas savastanoi pv. phaseolicola 1448A); experiment: EMSA; settings: EMSA: 40 ng probe in 20 ul of 10 mM Tris-HCl pH 7.4, 50 mM KCl, 5 mM MgCl2, 10% glycerol; room temperature 20 min; 6% PAGE, DNA dye; recombinant protein; residues 1-249; protein details: N-terminal His6 (pET28a); probe letters rebuilt from the primers and the genome
[2] = tested on: RhpR (Pseudomonas savastanoi pv. phaseolicola 1448A); experiment: EMSA; settings: EMSA: 40 ng probe in 20 ul of 10 mM Tris-HCl pH 7.4, 50 mM KCl, 5 mM MgCl2, 10% glycerol; room temperature 20 min; 6% PAGE, DNA dye; recombinant protein; residues 1-249; protein details: N-terminal His6 (pET28a); probe letters rebuilt from the primers and the genome

“ATATATCTCGAGCCCTTTGCTTTGTCGCCAGCAGACCACCCTCGCGCCCGTGCTCCGCATGGGTATGCGGTTCCTGAAGCTCTGCGTCCGCTCTTGGGCGTGTGGTGCGGCGCAGATTTGTGACGCAGAGCGTCACCCACGGCATTCCCACGCTGGAGCGTGAGGAACGATCATCTCAACTATCGTGCGACGCTCCGCATTGCATGCCGTTCCGGGCGCTCTGCGTCCGCTCTTTGCGATTCCCACGTAGAGCGTGAGGAGCGATCATCTCAACTATCGTGCGACGCTCCGCGTCGCATGCCGTTCCGGGCGCTCTGCGTCCGCTCTGTGCGATTCCCACGCAGAGCGTGAGGAACGATCATCTCAACTATCGTGCGACGCTCCGCATTGCATGCCGTTCCGGACGCTCTGCGTCCGCTCTTGAAGATTTTCTGACTGCGCAAGGTATGCCGGTTTCACATTGCTTCTGCCTTTAAAGCCTTACCAGCACTGGCTTTGTAAAAGTTGGACAGCTTTTTGCAACAGGGTCGATACAGGTCGCCATCGGCGTCAATGTTTTGATCTAGTGCGCAGGTAAACAATCAGGATCCGTC (double strand) [flhA promoter]”: binds [1].

“TTCTCGAGACACTGTAACCGTCGTGTAACGCATCGCTGTTACACGACCTGTCCTACGATCCAACAGCAAATGCCAACATCGTGACGCCAGATAAACGTCAACTTTTCGACGACGCAATCTCGCCTGATTTTTTCATTAAAAAAAATCCACTTTTTTACGTAGTGGCTTTTTGGCTTTTTGCAGTAGTAGCACTTTCATATCCACCCCGCTGAAGTCCCCGCGCAATAAGGCTTTTAAGAAAAACGCCATCACCGCGATACTGCCCCTGTCACAAACTGGCTACAGCAAAATCCGCAAATCAGGACGAGTGGCCCGGAACTAAATGCGAATTCCTACGCTCCTACATCCCGTAACAATTCTGGACTGACGTGTAAGAGATCACTTACAGGTCGACTGGAAAAATGGGAAGTTACCGACAGGGAAGCCAGGTTCATGTAACGCTGGCGTCAGGTACCAGAACTAAACTCACATCACTAGTTGATGTTGTAGACAGGCGAAGCGCCCAACAGGTGTGATGCGCAGGATTCGACAAGGTCAGCCAAGGCTCTAGCCGGAGGCTTTCCGAACGAGGTCCGCCGTCGATCGTCAAACAGGAGTGGTTTACTACATCCAAGGAGAGCAGGGCCCTGCCCACCGGACAGGTCACTTGCCGCTTGTACTTAGTGTCATTTGAGTTCGCCTCACCTATTTGGGCACTCACTCATTAAATATGCCTGCGTTAGTTCCACGGCGTTGTTAGCCGTAGAGGATGGCGTGTGACATCTGCTGGCCAAAATTAATATCCAGCCAATTTATGGCGTGAAAAATCGAGGAGAATACGGGATCCAA (double strand) [algD promoter]”: binds [2].

“TTGGATCCAACCTTTTGAATTTGCTCACTTTTATTTGGCCTCTTGGATTTTCGTACCCGCTTTTGTACCCGCTACTATGTTTGCTTGGTAACGGTTGCGTTGCGTGCAGGTAATGGGAAATAAGCACAGGAGGCCGGAGTCGGCGGGTTGAAATGTCAGGTACGCCAACGCCAGCGGGCATGGGCCTTGATAACGCGCATCAAGAGTCTGCTGACCAACGTCACGGAGGGAGTCTCATTTGGAGGTTGCAGGACAGTATCGTACCCAATCCTACGGTGCAATATCATTGTACGATAGCAAAGCTGCGGATCTTAGGAGTGGCAGCCTCTCACTGATCTTTTTCTGTGCGCTAGAATTGACTCGAGAA (double strand) [trpG promoter]”: binds [2].

“TTGGATCCCCTTCTAAGTATTAAAGTCACAAGAGTGGAAATGTAACTATTTATGGTGTCTTGATAGACAGTTTGTGTTGTGCGTCATGACGGGGTGGGAGTTTACAGCAGGTGCGTTAGTTGCGAAGTCTCTGGCGGACTTTGGTTAGTGGCGGGAGGTGTAGGATATTTCCTAAATTAGTGTCATACATTTAAAATCTTGAGTTTTTACGTTGTTCCGGGTTTTTCATGGGTCTGTGCTTGTCTGTCCGGGCAGAGAATCCGAAGGGCAAATGTAACGGGGAGTATCAGTTTTTTTGTGTTCGGGCTGGTTAGGGCCTGCCGTCAGGCAGGCCCTTGTTCTCGAGAA (double strand) [fimA promoter]”: binds [1].
